# System: HIV-1 Env-pseudoviruses (30-strain panel)
# Experiment: Neutralization assay, cross-clade 30-strain panel (Env-pseudoviruses, TZM-bl target cells)
# Type: cell-based
# Conditions: Human immunodeficiency virus 1, TZM-bl, A03349M1.vrc4a (Clade D)
# Method: Neutralization was measured using single-round-of-infection HIV-1 Env-pseudoviruses and TZM-bl target cells (ARP Cat No. #8129)[44],[45]. Compounds were prepared at 400 μM with 4% DMSO (dimethyl sulfoxide) in PBS (phosphate-buffered saline) and diluted 20 times as the starting concentration for serial dilution in the neutralization assays. […] After incubation at 37 °C for 2 days, infection of target cells was measured by luciferase activity. Neutralization curves were fit by nonlinear regression using a five-parameter hill slope equation[45].
row,Structure (SMILES),IC50 [nM]
1,O=C(C(=O)N1CCN(C(=O)c2ccccc2)CC1)c1c[nH]c2c(F)ccc(Br)c12 [BMS-386150],> 20000
2,COc1cnc(-n2cnc(C)n2)c2[nH]cc(C(=O)C(=O)N3CCN(C(=O)c4ccccc4)CC3)c12 [BMS-626529],5
3,COc1cnc(-c2csc(CN(C)CCCN(C)C)n2)c2[nH]cc(C(=O)C(=O)N3CCC(=C(C#N)c4ccccc4)CC3)c12 [BMS-814508],8
4,"O=C(c1ccsc1)N1CCN(C(=O)C2(c3cccc(Cl)c3)CC2)CC1 [Compound 484, reference compound]",> 20000
5,COc1cnc(-c2csc(C(=O)NCCO)n2)c2[nH]cc(C(=O)C(=O)N3CCC(=C(C#N)c4ccccc4)CC3)c12 [BMS-818251],< 0.3

# System: HIV-1 Env-pseudoviruses (208-strain panel)
# Experiment: not given
# Conditions: A03349M1.vrc4a, clade D; cited from earlier work
row,Structure (SMILES),IC50 [nM]
1,COc1cnc(-n2cnc(C)n2)c2[nH]cc(C(=O)C(=O)N3CCN(C(=O)c4ccccc4)CC3)c12 [BMS-626529],4

# Source: article PMC6318274, “Lattice engineering enables definition of molecular features allowing for potent small-molecule inhibition of HIV-1 entry” (Nature Communications, 2019)
